Source: patent publication US10414808B2 (priority 2012, dated 2019)

Chains of the proteins cited; added tags and fusions are not shown.
UniProt Q99250, whole entry, looked up: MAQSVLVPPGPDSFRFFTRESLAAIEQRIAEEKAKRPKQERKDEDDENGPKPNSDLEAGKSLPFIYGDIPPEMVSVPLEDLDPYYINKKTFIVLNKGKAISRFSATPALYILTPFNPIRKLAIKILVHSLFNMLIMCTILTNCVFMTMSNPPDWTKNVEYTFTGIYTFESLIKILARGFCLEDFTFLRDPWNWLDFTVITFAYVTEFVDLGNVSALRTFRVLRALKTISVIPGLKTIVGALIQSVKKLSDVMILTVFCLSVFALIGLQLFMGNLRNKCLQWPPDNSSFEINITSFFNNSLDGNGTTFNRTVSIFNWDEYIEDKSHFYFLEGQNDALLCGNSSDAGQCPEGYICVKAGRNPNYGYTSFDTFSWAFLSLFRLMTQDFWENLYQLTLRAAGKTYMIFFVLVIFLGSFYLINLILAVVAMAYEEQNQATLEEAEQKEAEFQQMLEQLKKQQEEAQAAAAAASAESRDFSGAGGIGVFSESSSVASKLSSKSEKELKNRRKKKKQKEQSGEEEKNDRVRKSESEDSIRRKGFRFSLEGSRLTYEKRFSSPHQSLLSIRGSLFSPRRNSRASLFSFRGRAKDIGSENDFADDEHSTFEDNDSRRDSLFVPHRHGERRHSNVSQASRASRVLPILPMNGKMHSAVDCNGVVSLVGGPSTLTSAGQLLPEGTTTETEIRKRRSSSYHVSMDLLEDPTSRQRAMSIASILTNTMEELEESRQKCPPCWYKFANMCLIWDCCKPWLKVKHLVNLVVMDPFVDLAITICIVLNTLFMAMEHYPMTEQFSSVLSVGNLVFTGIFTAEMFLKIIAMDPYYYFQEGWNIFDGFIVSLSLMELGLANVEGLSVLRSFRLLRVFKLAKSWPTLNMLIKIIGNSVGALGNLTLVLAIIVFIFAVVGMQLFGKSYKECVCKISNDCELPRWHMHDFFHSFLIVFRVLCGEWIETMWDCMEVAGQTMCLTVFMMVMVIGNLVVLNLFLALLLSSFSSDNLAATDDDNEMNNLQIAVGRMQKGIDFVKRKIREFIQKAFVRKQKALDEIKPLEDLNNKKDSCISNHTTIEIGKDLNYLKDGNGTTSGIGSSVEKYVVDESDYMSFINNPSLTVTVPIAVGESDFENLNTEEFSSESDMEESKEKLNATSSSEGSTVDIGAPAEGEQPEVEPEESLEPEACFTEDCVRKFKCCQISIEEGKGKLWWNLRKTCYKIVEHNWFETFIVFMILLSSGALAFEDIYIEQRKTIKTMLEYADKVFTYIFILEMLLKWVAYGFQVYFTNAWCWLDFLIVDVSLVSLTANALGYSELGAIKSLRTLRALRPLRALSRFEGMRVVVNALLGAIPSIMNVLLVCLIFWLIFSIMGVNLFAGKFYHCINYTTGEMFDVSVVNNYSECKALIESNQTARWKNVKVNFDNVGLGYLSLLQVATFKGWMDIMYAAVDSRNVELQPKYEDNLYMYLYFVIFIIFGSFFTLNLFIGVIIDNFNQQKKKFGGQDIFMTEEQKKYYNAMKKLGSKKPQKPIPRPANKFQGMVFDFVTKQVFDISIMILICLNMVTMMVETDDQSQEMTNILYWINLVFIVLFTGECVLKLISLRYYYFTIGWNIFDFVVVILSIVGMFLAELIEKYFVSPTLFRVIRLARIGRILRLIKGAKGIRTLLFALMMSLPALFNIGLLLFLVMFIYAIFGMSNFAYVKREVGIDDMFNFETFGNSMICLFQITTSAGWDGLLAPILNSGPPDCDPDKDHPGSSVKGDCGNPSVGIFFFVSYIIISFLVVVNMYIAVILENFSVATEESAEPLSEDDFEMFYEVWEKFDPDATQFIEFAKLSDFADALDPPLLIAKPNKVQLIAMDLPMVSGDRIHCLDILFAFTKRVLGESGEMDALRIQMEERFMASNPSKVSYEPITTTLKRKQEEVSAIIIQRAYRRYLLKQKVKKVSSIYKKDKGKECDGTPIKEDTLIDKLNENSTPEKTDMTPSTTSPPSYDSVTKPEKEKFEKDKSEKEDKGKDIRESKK
UniProt Q15858, whole entry W1161R, looked up: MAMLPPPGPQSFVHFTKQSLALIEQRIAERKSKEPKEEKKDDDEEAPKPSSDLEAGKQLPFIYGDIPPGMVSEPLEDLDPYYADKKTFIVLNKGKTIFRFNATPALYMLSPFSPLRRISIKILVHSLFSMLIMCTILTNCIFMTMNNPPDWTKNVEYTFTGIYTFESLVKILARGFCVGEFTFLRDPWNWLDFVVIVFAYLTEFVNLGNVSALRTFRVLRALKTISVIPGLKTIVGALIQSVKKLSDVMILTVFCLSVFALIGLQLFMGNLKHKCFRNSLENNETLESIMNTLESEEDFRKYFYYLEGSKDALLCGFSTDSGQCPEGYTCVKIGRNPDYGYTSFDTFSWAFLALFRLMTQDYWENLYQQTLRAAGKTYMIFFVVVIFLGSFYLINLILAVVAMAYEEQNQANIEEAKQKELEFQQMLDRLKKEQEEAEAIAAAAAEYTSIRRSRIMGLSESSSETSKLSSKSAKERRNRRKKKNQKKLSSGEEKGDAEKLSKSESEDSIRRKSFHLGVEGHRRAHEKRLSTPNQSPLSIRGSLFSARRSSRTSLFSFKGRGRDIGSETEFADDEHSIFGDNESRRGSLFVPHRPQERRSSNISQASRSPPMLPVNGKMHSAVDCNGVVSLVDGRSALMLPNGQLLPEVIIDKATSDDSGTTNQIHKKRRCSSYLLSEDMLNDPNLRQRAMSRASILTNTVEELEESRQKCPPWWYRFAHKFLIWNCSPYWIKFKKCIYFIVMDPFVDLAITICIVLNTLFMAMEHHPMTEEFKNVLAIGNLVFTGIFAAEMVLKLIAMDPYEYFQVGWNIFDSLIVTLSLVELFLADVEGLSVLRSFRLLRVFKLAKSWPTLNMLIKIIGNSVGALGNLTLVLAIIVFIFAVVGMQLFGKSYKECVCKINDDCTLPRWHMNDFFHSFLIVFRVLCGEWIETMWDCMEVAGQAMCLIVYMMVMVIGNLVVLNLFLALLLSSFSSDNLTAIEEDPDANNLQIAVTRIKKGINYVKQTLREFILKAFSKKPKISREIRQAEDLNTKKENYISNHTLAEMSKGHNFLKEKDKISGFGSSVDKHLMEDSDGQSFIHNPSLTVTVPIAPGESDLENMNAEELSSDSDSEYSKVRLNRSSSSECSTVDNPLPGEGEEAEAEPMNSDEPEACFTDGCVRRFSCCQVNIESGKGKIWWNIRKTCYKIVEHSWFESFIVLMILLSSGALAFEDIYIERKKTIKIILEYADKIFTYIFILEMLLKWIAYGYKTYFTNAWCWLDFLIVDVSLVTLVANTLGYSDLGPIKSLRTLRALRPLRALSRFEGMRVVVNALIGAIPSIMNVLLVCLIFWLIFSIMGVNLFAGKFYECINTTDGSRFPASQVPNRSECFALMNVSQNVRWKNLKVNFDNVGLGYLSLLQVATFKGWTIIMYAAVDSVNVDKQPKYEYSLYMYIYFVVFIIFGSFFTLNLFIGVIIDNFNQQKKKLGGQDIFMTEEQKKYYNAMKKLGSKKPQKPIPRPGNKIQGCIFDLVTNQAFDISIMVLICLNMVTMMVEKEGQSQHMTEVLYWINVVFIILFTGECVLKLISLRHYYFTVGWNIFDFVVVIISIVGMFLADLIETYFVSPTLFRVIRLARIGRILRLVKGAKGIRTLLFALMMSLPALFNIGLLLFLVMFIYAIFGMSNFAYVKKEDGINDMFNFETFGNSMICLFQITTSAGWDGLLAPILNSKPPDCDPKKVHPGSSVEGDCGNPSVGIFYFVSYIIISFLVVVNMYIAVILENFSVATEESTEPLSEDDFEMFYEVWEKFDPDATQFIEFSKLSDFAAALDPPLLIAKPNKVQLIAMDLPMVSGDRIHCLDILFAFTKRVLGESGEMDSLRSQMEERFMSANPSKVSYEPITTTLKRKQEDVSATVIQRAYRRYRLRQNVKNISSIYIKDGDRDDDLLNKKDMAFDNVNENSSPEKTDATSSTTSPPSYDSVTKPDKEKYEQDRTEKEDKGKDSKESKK

Key:
[1] = biological target: Nav1.2 (Homo sapiens, UniProt Q99250); experiment: IC50 (Nav1.2) µM; settings: read-out: IC50 (Nav1.2) µM
[2] = biological target: Nav1.7 (Homo sapiens, UniProt Q15858, W1161R); experiment: IC50 (Nav1.7) µM; settings: read-out: IC50 (Nav1.7) µM

Row | Compound | IC50 [1] [µM] | IC50 [2] [µM]
1 | CC[C@H](C)[C@H](NC(=O)[C@H](CCC(N)=O)NC(=O)[C@H](Cc1ccc(O)cc1)NC(=O)[C@H](CCCCN)NC(=O)[C@@H]1CSSC[C@@H]2NC(=O)[C@H](CCC(N)=O)NC(=O)[C@H](CC(=O)O)NC(=O)[C@H](CC(N)=O)NC(=O)[C@H](CO)NC(=O)[C@@H]3CCCN3C(=O)[C@H](CC(N)=O)NC(=O)[C@@H]3CSSC[C@H](NC(=O)[C@H](C(C)C)NC(=O)[C@H](CC(C)C)NC(=O)[C@H](CCCCN)NC(=O)[C@H](CC(N)=O)NC(=O)[C@H](CO)NC(=O)[C@H](CCCCN)NC(=O)[C@H](CSSC[C@H](NC(=O)[C@H](CCC(=O)O)NC(=O)[C@@H]4CCCN4C(=O)CN)C(=O)N[C@@H](CC(C)C)C(=O)N[C@@H](CCC(=O)O)C(=O)N[C@@H]([C@@H](C)CC)C(=O)N[C@@H](Cc4ccccc4)C(=O)N[C@@H](CCCCN)C(=O)N[C@@H](C)C(=O)N3)NC2=O)C(=O)N[C@@H](CO)C(=O)N[C@@H](CCCNC(=N)N)C(=O)N[C@@H](CCCCN)C(=O)N[C@@H]([C@@H](C)O)C(=O)N[C@@H](CCCNC(=N)N)C(=O)N[C@@H](Cc2c[nH]c3ccccc23)C(=O)N1)C(=O)NCC(=O)N[C@@H](CCCCN)C(=O)O | 0.07 | 0.02
2 | CC[C@H](C)[C@@H]1NC(=O)[C@H](CCC(=O)O)NC(=O)[C@H](CC(C)C)NC(=O)[C@@H](NC(=O)[C@H](CCC(=O)O)NC(=O)[C@@H]2CCCN2C(=O)CN)CSSC[C@@H]2NC(=O)[C@@H]3CSSC[C@@H](C(=O)N[C@@H](CCCCN)C(=O)N[C@@H](Cc4ccc(O)cc4)C(=O)N[C@@H](CCC(N)=O)C(=O)N[C@H](C(=O)N[C@H](C(=O)N[C@@H](CCCCN)C(=O)O)[C@@H](C)CC)[C@@H](C)CC)NC(=O)[C@H](Cc4c[nH]c5ccccc45)NC(=O)[C@H](CCCNC(=N)N)NC(=O)[C@H]([C@@H](C)O)NC(=O)[C@H](CCCCN)NC(=O)[C@H](CCCCN)NC(=O)[C@H](CO)NC(=O)[C@H](CSSC[C@H](NC(=O)[C@H](C)NC(=O)[C@H](CCCCN)NC(=O)[C@H](Cc4ccccc4)NC1=O)C(=O)N[C@@H](CC(N)=O)C(=O)N1CCC[C@H]1C(=O)N[C@@H](CO)C(=O)N[C@@H](CC(N)=O)C(=O)N[C@@H](CC(=O)O)C(=O)N[C@@H](CCC(N)=O)C(=O)N3)NC(=O)[C@H](C(C)C)NC(=O)[C@H](CC(C)C)NC(=O)[C@H](CCCCN)NC(=O)[C@H](CO)NC(=O)[C@H](CO)NC(=O)[C@H](CCCCN)NC2=O |  | 0.31
3 | CC[C@H](C)[C@H](NC(=O)[C@H](CCC(N)=O)NC(=O)[C@H](Cc1ccc(O)cc1)NC(=O)[C@H](CCCCN)NC(=O)[C@@H]1CSSC[C@@H]2NC(=O)[C@H](CCC(N)=O)NC(=O)[C@H](CC(=O)O)NC(=O)[C@H](CC(N)=O)NC(=O)[C@H](CO)NC(=O)[C@@H]3CCCN3C(=O)[C@H](CC(N)=O)NC(=O)[C@@H]3CSSC[C@H](NC(=O)[C@H](C(C)C)NC(=O)[C@H](CC(C)C)NC(=O)[C@H](CCCCN)NC(=O)[C@H](CO)NC(=O)[C@H](CO)NC(=O)[C@H](CCCCN)NC(=O)[C@H](CSSC[C@H](NC(=O)[C@H](CCC(=O)O)NC(=O)[C@@H]4CCCN4C(=O)CN)C(=O)N[C@@H](CC(C)C)C(=O)N[C@@H](CCC(=O)O)C(=O)N[C@@H]([C@@H](C)CC)C(=O)N[C@@H](Cc4ccccc4)C(=O)N[C@@H](CCCCN)C(=O)N[C@@H](C)C(=O)N3)NC2=O)C(=O)N[C@@H](CO)C(=O)N[C@@H](CCCNC(=N)N)C(=O)N[C@@H](CCCCN)C(=O)N[C@@H]([C@@H](C)O)C(=O)N[C@@H](CCCNC(=N)N)C(=O)N[C@@H](Cc2ccc(O)cc2)C(=O)N1)C(=O)NCC(=O)N[C@@H](CCCCN)C(=O)O | 36.6 | 1.69
4 | CC[C@H](C)[C@@H]1NC(=O)[C@H](CCC(=O)O)NC(=O)[C@H](CC(C)C)NC(=O)[C@@H](NC(=O)[C@H](CC(N)=O)NC(=O)[C@@H]2CCCN2C(=O)CN)CSSC[C@@H]2NC(=O)[C@@H]3CSSC[C@@H](C(=O)N[C@@H](CCCCN)C(=O)N[C@@H](Cc4c[nH]c5ccccc45)C(=O)N[C@@H](CCC(N)=O)C(=O)N[C@H](C(=O)N[C@H](C(=O)N[C@@H](CCCCN)C(=O)O)[C@@H](C)CC)[C@@H](C)CC)NC(=O)[C@H](Cc4c[nH]c5ccccc45)NC(=O)[C@H](CCCNC(=N)N)NC(=O)[C@H]([C@@H](C)O)NC(=O)[C@H](CCCCN)NC(=O)[C@H](CCCNC(=N)N)NC(=O)[C@H](CO)NC(=O)[C@H](CSSC[C@H](NC(=O)[C@H](C)NC(=O)[C@H](CCCCN)NC(=O)[C@H](Cc4ccccc4)NC1=O)C(=O)N[C@@H](CC(N)=O)C(=O)N1CCC[C@H]1C(=O)N[C@@H](CO)C(=O)N[C@@H](CC(N)=O)C(=O)N[C@@H](CC(=O)O)C(=O)N[C@@H](CCC(N)=O)C(=O)N3)NC(=O)[C@H](C(C)C)NC(=O)[C@H](CC(C)C)NC(=O)[C@H](CCCCN)NC(=O)[C@H](CO)NC(=O)[C@H](CO)NC(=O)[C@H](CCCCN)NC2=O | 0.25 | 0.02
5 | CC[C@H](C)[C@H](NC(=O)[C@H](CO)NC(=O)[C@H](Cc1ccc(O)cc1)NC(=O)[C@H](CCCCN)NC(=O)[C@@H]1CSSC[C@@H]2NC(=O)[C@H](CCC(N)=O)NC(=O)[C@H](CC(=O)O)NC(=O)[C@H](CC(N)=O)NC(=O)[C@H](CO)NC(=O)[C@@H]3CCCN3C(=O)[C@H](CC(N)=O)NC(=O)[C@@H]3CSSC[C@H](NC(=O)[C@H](C(C)C)NC(=O)[C@H](CC(C)C)NC(=O)[C@H](CCCCN)NC(=O)[C@H](CO)NC(=O)[C@H](CO)NC(=O)[C@H](CCCCN)NC(=O)[C@H](CSSC[C@H](NC(=O)[C@H](CC(N)=O)NC(=O)[C@@H]4CCCN4C(=O)CN)C(=O)N[C@@H](CC(C)C)C(=O)N[C@@H](CCCNC(=N)N)C(=O)N[C@@H]([C@@H](C)CC)C(=O)N[C@@H](Cc4ccccc4)C(=O)N[C@@H](CCCCN)C(=O)N[C@@H](C)C(=O)N3)NC2=O)C(=O)N[C@@H](CO)C(=O)N[C@@H](CCCCN)C(=O)N[C@@H](CCCCN)C(=O)N[C@@H]([C@@H](C)O)C(=O)N[C@@H](CCCNC(=N)N)C(=O)N[C@@H](Cc2c[nH]c3ccccc23)C(=O)N1)C(=O)NCC(=O)N[C@@H](CCCCN)C(=O)O | 0.11 | 
6 | CC[C@H](C)[C@H](NC(=O)[C@H](Cc1ccccc1)NC(=O)[C@H](Cc1ccc(O)cc1)NC(=O)[C@H](CCCCN)NC(=O)[C@@H]1CSSC[C@@H]2NC(=O)[C@H](CCC(N)=O)NC(=O)[C@H](CC(=O)O)NC(=O)[C@H](CC(N)=O)NC(=O)[C@H](CO)NC(=O)[C@@H]3CCCN3C(=O)[C@H](CC(N)=O)NC(=O)[C@@H]3CSSC[C@H](NC(=O)[C@H](C(C)C)NC(=O)[C@H](CC(C)C)NC(=O)[C@H](CCCCN)NC(=O)[C@H](CO)NC(=O)[C@H](CO)NC(=O)[C@H](CCCCN)NC(=O)[C@H](CSSC[C@H](NC(=O)[C@H](CCC(=O)O)NC(=O)[C@@H]4CCCN4C(=O)CN)C(=O)N[C@@H](CC(C)C)C(=O)N[C@@H](CCC(=O)O)C(=O)N[C@@H]([C@@H](C)CC)C(=O)N[C@@H](Cc4ccccc4)C(=O)N[C@@H](CCCCN)C(=O)N[C@@H](C)C(=O)N3)NC2=O)C(=O)N[C@@H](CO)C(=O)N[C@@H](CCCNC(=N)N)C(=O)N[C@@H](CCCCN)C(=O)N[C@@H]([C@@H](C)O)C(=O)N[C@@H](CCCNC(=N)N)C(=O)N[C@@H](Cc2c[nH]c3ccccc23)C(=O)N1)C(=O)NCC(=O)N[C@@H](CCCCN)C(=O)O | > 0.06 | 
7 | CC[C@H](C)[C@H](NC(=O)[C@H](CCC(N)=O)NC(=O)[C@H](Cc1ccc(O)cc1)NC(=O)[C@H](CCCCN)NC(=O)[C@@H]1CSSC[C@@H]2NC(=O)[C@H](CCC(N)=O)NC(=O)[C@H](CC(=O)O)NC(=O)[C@H](CC(N)=O)NC(=O)[C@H](CO)NC(=O)[C@@H]3CCCN3C(=O)[C@H](CC(N)=O)NC(=O)[C@@H]3CSSC[C@H](NC(=O)[C@H](C(C)C)NC(=O)[C@H](CC(C)C)NC(=O)[C@H](CCCCN)NC(=O)[C@H](CO)NC(=O)[C@H](CO)NC(=O)[C@H](CCCCN)NC(=O)[C@H](CSSC[C@H](NC(=O)[C@H](CCC(=O)O)NC(=O)[C@@H]4CCCN4C(=O)CN)C(=O)N[C@@H](CC(C)C)C(=O)N[C@@H](CCC(=O)O)C(=O)N[C@@H]([C@@H](C)CC)C(=O)N[C@@H](Cc4ccccc4)C(=O)N[C@@H](CCCCN)C(=O)N[C@@H](CCCNC(=N)N)C(=O)N3)NC2=O)C(=O)N[C@@H](CO)C(=O)N[C@@H](CCCNC(=N)N)C(=O)N[C@@H](CCCCN)C(=O)N[C@@H]([C@@H](C)O)C(=O)N[C@@H](CCCNC(=N)N)C(=O)N[C@@H](Cc2c[nH]c3ccccc23)C(=O)N1)C(=O)NCC(=O)N[C@@H](CCCCN)C(=O)O |  | 0.02
8 | CC[C@H](C)[C@H](NC(=O)[C@H](CO)NC(=O)[C@H](Cc1c[nH]c2ccccc12)NC(=O)[C@H](CCCCN)NC(=O)[C@@H]1CSSC[C@@H]2NC(=O)[C@H](CCC(N)=O)NC(=O)[C@H](CC(=O)O)NC(=O)[C@H](CC(N)=O)NC(=O)[C@H](CO)NC(=O)[C@@H]3CCCN3C(=O)[C@H](CC(N)=O)NC(=O)[C@@H]3CSSC[C@H](NC(=O)[C@H](C(C)C)NC(=O)[C@H](CC(C)C)NC(=O)[C@H](CCCCN)NC(=O)[C@H](CO)NC(=O)[C@H](CO)NC(=O)[C@H](CCCCN)NC(=O)[C@H](CSSC[C@H](NC(=O)[C@H](CC(N)=O)NC(=O)[C@@H]4CCCN4C(=O)CN)C(=O)N[C@@H](CC(C)C)C(=O)N[C@@H](CCC(=O)O)C(=O)N[C@@H]([C@@H](C)CC)C(=O)N[C@@H](Cc4ccccc4)C(=O)N[C@@H](CCCCN)C(=O)N[C@@H](C)C(=O)N3)NC2=O)C(=O)N[C@@H](CO)C(=O)N[C@@H](CCCNC(=N)N)C(=O)N[C@@H](CCCCN)C(=O)N[C@@H]([C@@H](C)O)C(=O)N[C@@H](CCCNC(=N)N)C(=O)N[C@@H](Cc2c[nH]c3ccccc23)C(=O)N1)C(=O)NCC(=O)N[C@@H](CCCCN)C(=O)O |  | 0.02
